Compound potency records, mixed from different reports. Data source: NIAID ChemDB in PubChem.

Shared fields: target-level tests; agent: Herpes simplex virus 1; target: Thymidine kinase; measure: IC50

An empty or dashed field is not shown. Neighbouring rows are from separate reports. ICn: concentration for n% inhibition.

smiles,strain,value
C#Cc1cn([C@@H]2O[C@H](CO)[C@@H](O)[C@@H]2F)c(=O)nc1N,F,>200 µM
O=c1[nH]c(=O)n([C@@H]2C[C@@H](O)[C@H](CO)O2)cc1C(F)(F)F,,0.5 µM
Cc1cn([C@H]2C[C@H](O)[C@@H](CNS(=O)(=O)C(F)(F)F)O2)c(=O)[nH]c1=O,,>200 µM
Cc1cn([C@@H]2O[C@H](CO)[C@@H](O)[C@@H]2F)c(=O)nc1N,F,>200 µM
Cc1cn([C@H]2C[C@H](O)[C@@H](CNS(=O)(=O)c3ccc(NS(=O)(=O)O)cc3)O2)c(=O)[nH]c1=O,,>200 µM
CCc1cn([C@H]2C[C@H](O)[C@@H](CNC(=O)[C@@H](C)Oc3ccc(Cl)cc3Cl)O2)c(=O)[nH]c1=O,,0.03 µM
CS(=O)(=O)NC[C@H]1O[C@@H](n2cc(I)c(=O)[nH]c2=O)C[C@@H]1O,,>200 µM
Nc1nc(=O)n([C@@H]2O[C@H](CO)[C@@H](O)[C@@H]2F)cc1/C=C/Br,F,>200 µM
CCCCCCCCCCCC(=O)OC/C=C/Cn1cc(C)c(=O)[nH]c1=O,,19 µM
CCc1cn([C@H]2C[C@H](O)[C@@H](CNS(=O)(=O)c3ccccc3)O2)c(=O)[nH]c1=O,,15.2 µM
CC(C)C(=O)NC[C@H]1O[C@@H](n2cc(I)c(=O)[nH]c2=O)C[C@@H]1O,,55 µM
CCc1cn([C@H]2C[C@H](O)[C@@H](CNC(=O)CCc3ccccc3)O2)c(=O)[nH]c1=O,,1.7 µM
CC(C)CC(=O)NC[C@H]1O[C@@H](n2cc(I)c(=O)[nH]c2=O)C[C@@H]1O,,68 µM
Nc1nc(=O)n([C@@H]2O[C@H](CO)[C@@H](O)[C@@H]2F)cc1/C=C/C(=O)O,F,>200 µM
CCCCCCCCOP(=O)(O)OC[C@H]1O[C@@H](n2cc(CC)c(=O)[nH]c2=O)C[C@@H]1O,,9.2 µM
Nc1nc(=O)n([C@@H]2O[C@H](CO)[C@@H](O)[C@@H]2F)cc1/C=C/I,F,>200 µM
C#C[C@H]1O[C@@H](n2cc(C)c(=O)[nH]c2=O)C[C@@H]1O,KOS,6 µM
O=c1[nH]c(=O)n([C@@H]2O[C@H](CO)[C@@H](O)[C@@H]2F)cc1/C=C/I,F,<200 µM
CCc1cn(C/C=C\COC(c2ccccc2)(c2ccccc2)c2ccccc2)c(=O)[nH]c1=O,,20 µM